## Primary screen of a compound library

The values are deposited in ChEMBL (CHEMBL3988442, “University of Dundee, Small-Polar-MMV Screening Library” (2021)).

A: 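Phenotypic screen: M. tuberculosis growth, glucose 7H9 medium, 3 days; the read-out is not stated. Tested at 50 µM. The record gives no direction; compounds that gave an IC50 in retests scored well above the rest, so higher reads as more growth inhibition. About 69,000 compounds were tested under these conditions; 1.1% (about 760) showed 50% or more at least once.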
B: 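Phenotypic screen: M. tuberculosis growth, cholesterol and DPPC medium, 4 days; the read-out is not stated. Concentration: 50 µM. Direction is inferred from retests: higher values go with more growth inhibition. Of about 69,000 compounds tested this way, about 370 (0.54%) reached 50% or more in at least one test.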

Values are the deposited “Percent Effect”, in %. How 0% and 100% were set is not recorded. Most values in the screen are low, and negative values occur. This is part of a subset picked to be rich in strong results. Two or more numbers in one place are separate tests of the same structure; such repeats can differ widely. A dash means the value is not listed here; it may have been measured.

compound,A,B
Cc1ccc(CN2CCC3(CCCC(=O)N3)CC2)s1.O=C(O)C(F)(F)F,-,10.31
CCS(=O)(=O)N1CCC2(CCCN(Cc3ccc(F)c(F)c3)C2=O)C1 (configuration not stated),-6.111,-
CC(C)C[C@H](N)COc1cccc(F)c1Oc1cccc(Cl)c1,107.5,104.3
CN(CC1COc2ccccc2O1)C(=O)CCn1cncn1 (configuration not stated),6.301,-7.483
CCCc1nnc(N2CC[C@](C)(O)[C@H](C)C2)s1,-3.949,-11.13
NC(=O)C1=NC2=NS(=O)(=O)c3ccccc3N2N1Cc1ccc(Br)cc1,13.44,38.82
COc1ccccc1-n1c(C)cc(CNC(=O)NC(C)C)c1C,-7.408,-
Cc1cc(C)cc(OCCNC(=O)C(C)Sc2nncn2C)c1 (configuration not stated),3.75,-
CNCc1cc(C)n(-c2ccccc2OC)c1C,55.42,-
CCCN(CCn1c(=O)oc2ccccc21)CC1CC1,-,75.44
Cc1ccc(CN2CCc3nc(C(C)C)nc(O)c3CC2)s1,-,-30.4
CCN1CCc2nc(N3CCOCC3)nc(NC(C)C)c2C1,9.417,-
Cc1ccc(S(=O)(=O)NCC(O)c2ccoc2)s1 (configuration not stated),-,-7.287
CC(C)(C)c1noc(CCC(=O)N2CCN(Cc3ccc(Cl)s3)CC2)n1,-8.603,-
Cc1cc(N(C)Cc2ccsc2)n2nc(C)c(C)c2n1,77.45 & 78.77,73.41
[H][C@]12CC[C@]([H])(CN(C(=O)CCc3n[nH]c4c3CCCC4)C1)N(CC1CC1)C2,52.33,-
Cc1ccc(NC(=O)CS(=O)(=O)NC2CCC(C)CC2)nc1 (configuration not stated),50.81,-
Cl.c1ccc(CCNc2cccc(C3CCCNC3)n2)cc1 (configuration not stated),10.26,8.525
CC(C)c1nnc(CN(C)C(c2ccccc2)c2ccc(F)cc2)o1 (configuration not stated),32.54 & 23.07,-
CNC(=O)CN(C)C(=O)c1cc2ccccc2cc1OC,15.23,-
CCC[C@H]1CN(S(=O)(=O)N(C)Cc2ccccc2)C[C@@H]1N,22.58,-
COc1ccccc1-c1ncc(CN2CCCC(CCC(N)=O)C2)s1 (configuration not stated),30.79,-
Cc1nc(CCNC(C)c2ccc3c(c2)OCCCO3)cs1 (configuration not stated),10.86,-
CCc1noc(Cn2c(=O)c3c(C(F)(F)F)cc(C)nc3n2C)n1,44.72,41.88
CCC(C)CNc1ccc2oc(COC)nc2c1 (configuration not stated),-,52.25 & 24.39
CC(C)Cn1ccc2c(NC(=O)c3n[nH]c4c3CCC4)cccc21,23.44,-
NC(=O)C1=NC2=NS(=O)(=O)c3ccccc3N2N1Cc1ccc(Cl)cc1,53.43,70.54
CC(C)(CO)Nc1ccc(-c2nc(-c3ccccc3F)no2)cn1,12.95 & 16.84,-
O=C(NCC1CC1)C1CCCN(c2cccc(C(F)(F)F)n2)C1 (configuration not stated),54.05,-
Cc1csc2ncc(-c3ccnc(N4CCN(C)CC4)n3)c(=O)n12,-26.13,-
COC(=O)C(C)NCc1ccc2[nH]c(C)c(C)c2c1 (configuration not stated),2.423,-17.24
CC(C)c1nsc(NC2CCOC3(CCCC3)C2)n1 (configuration not stated),-,53.06
Cc1nnc(N2CC[C@H](OCC3CC3)[C@@H](Cc3ccccc3)C2)s1.O=C(O)C(F)(F)F,33.85,10.19
CN1CCN(C(=O)C2CCN(c3cccnn3)C2)CC1 (configuration not stated),-12.48,-
COc1cccc(SCC(=O)N2CCCC(N3CCCC3=O)C2)c1 (configuration not stated),27.71,-
CCCC(C)CS(=O)(=O)NCc1cccnc1N(C)C (configuration not stated),-0.00452,4.063
O=C(NCC(O)c1ccc(Cl)c(F)c1)NC1CC=CC1 (configuration not stated),17.54,-
CN1CCOC[C@H]1c1nc(-c2cccnc2)c[nH]1,61.91 & 17.59,-
CC(NC(=O)CN1CCN(Cc2ccc(Br)s2)CC1)c1ccccc1 (configuration not stated),-,-18.43
Nc1cc(N2CCCC(CO)(Cc3ccccc3F)C2)nc(N)n1 (configuration not stated),69.86,-
N#Cc1cccnc1OC1CCN(C(=O)c2cc(C3CC3)on2)CC1,18.75 & 21.9,-
Cc1nc(CNCC2CN(C3CC3)CCO2)cs1 (configuration not stated),-16.44,-
CS(=O)(=O)CCSc1nnc(Cc2ccccc2F)o1,29.31,-7.005 & 11.47
Cc1ccc(-c2cc(N)c(=O)n(C(C)C(=O)NC(C)C)n2)o1 (configuration not stated),-4.604,-20.23 & 3.582
CCNc1ncc(C(=O)N2CCOC(CCCC(C)C)C2)cn1 (configuration not stated),56.7,58.46 & 59.8
Cc1cc(N(C)CCN(C)C)n2nc(C)cc2n1,29.83,-
Cc1cc2nc(-c3ccccc3)cc(NCC3CCS(=O)(=O)C3)n2n1 (configuration not stated),-,-33.37
CCC1CN(CCCNS(C)(=O)=O)c2ccccc2O1 (configuration not stated),13.12 & 0.3696,-7.207
Cc1nc(-n2nc(C3CC3)cc2NC(=O)C(C)C)[nH]c(=O)c1C,61.68,-
CCC(C)N1CCc2nc(N3CCCC3)nc(NC(C)C)c2C1 (configuration not stated),-12.21,-
CCOC(=O)NC(CNC(=O)c1cccnc1SC)CC(C)C (configuration not stated),-14.07 & 0.1416,-
CN1CCN(C(=O)c2cnsn2)c2ccc(F)cc21,9.473,-
Cc1nc(N)ncc1C(=O)N1CCCC(CCc2ccccc2F)C1 (configuration not stated),-17.92 & 4.491,5.931
[H][C@]12CCN(C(=O)c3ccccc3F)C[C@@]1([H])OCCN(c1ncccn1)C2,-12.15,-
O=C1CCN(C(=O)CCc2ccc(Cl)cc2Cl)CCN1,-8.068,2.356 & -14.14
Cc1n[nH]c(C)c1CCNC(=O)C1CCCN(CC(N)=O)C1 (configuration not stated),-,20.47
COCC(=O)N1CCCC1c1cccc(Cc2ccccc2F)n1 (configuration not stated),-1.744,-
O=C(O)C(F)(F)F.O=C1COC2(CCN(c3ncccn3)CC2)CN1,14.17,-
FC(F)(F)Oc1cccc(CNCc2ccc(-n3cncn3)nc2)c1,21.24,26.37
O=C(c1cnn(-c2ccccc2)c1)N1CCN(c2cnccn2)CC1,2.545 & 19.8,-7.531
C[C@@H]1CN(c2nc3c(cc2C(N)=O)CCC3)C[C@@]1(O)C1CCC1,10.42 & 3.227,-
CCn1nc(C)c2nc(C(C)C)nc(NCCc3ccc(O)cc3)c21,50.15,-

The first 8 entries again:

| compound | A | B |
|---|---|---|
| `Cc1ccc(CN2CCC3(CCCC(=O)N3)CC2)s1.O=C(O)C(F)(F)F` | - | 10.31 |
| `CCS(=O)(=O)N1CCC2(CCCN(Cc3ccc(F)c(F)c3)C2=O)C1` (configuration not stated) | -6.111 | - |
| `CC(C)C[C@H](N)COc1cccc(F)c1Oc1cccc(Cl)c1` | 107.5 | 104.3 |
| `CN(CC1COc2ccccc2O1)C(=O)CCn1cncn1` (configuration not stated) | 6.301 | -7.483 |
| `CCCc1nnc(N2CC[C@](C)(O)[C@H](C)C2)s1` | -3.949 | -11.13 |
| `NC(=O)C1=NC2=NS(=O)(=O)c3ccccc3N2N1Cc1ccc(Br)cc1` | 13.44 | 38.82 |
| `COc1ccccc1-n1c(C)cc(CNC(=O)NC(C)C)c1C` | -7.408 | - |
| `Cc1cc(C)cc(OCCNC(=O)C(C)Sc2nncn2C)c1` (configuration not stated) | 3.75 | - |